Patent US10806794B2, “Protease inhibitors having enhanced features” (priority 2008, dated 2020)

Tests used:
[1] = tested on: HIV-1RF; test: Pre-exposure assay: CEM-SS cells treated before HIV-1RF infection, cell viability; format: cell-based
[2] = tested on: Caco-2 cells
[3] = tested on: HIV-1RF; test: p24 levels after single high MOI HIV-1RF infection of CEM-SS cells, time of addition
[4] = tested on: HIV-1RF; test: Post-exposure assay: compounds added after HIV-1 infection of CEM-SS cells, cell viability; format: cell-based
[5] = tested on: HIV-1 virions; test: Infectivity of HIV-1 virions from treated cells on naive CEM-SS cells; format: cell-based

COCCOCCOCCOCCOCCOCCOCCNC(=O)C[C@H](NC(=O)c1ccc2ccccc2n1)C(=O)N[C@@H](Cc1ccccc1)[C@H](O)CN1C[C@H]2CCCC[C@H]2C[C@H]1C(=O)NC(C)(C)C
EC50 ([1]; exposure 2 h pre-infection): 0.5 µM | EC50 ([1]; exposure 8 h pre-infection): 0.54 µM | EC50 ([1]; exposure 24 h pre-infection): 0.74 µM | Papp A→B [2]: 0.255 ×10⁻⁶ cm/s | time of addition up to which antiviral activity (reduced p24) was seen ([3]; 0.1 μM): up to 16 hours post-infection | time of addition up to which antiviral activity (reduced p24) was seen ([3]; 1 μM): up to 24 hours post-infection | EC50 ([4]; drug addition 0 h post-infection): 0.05 µM | EC50 ([4]; drug addition 24 h post-infection): 0.05 µM | EC50 ([4]; drug addition 48 h post-infection): 0.05 µM | EC50 ([4]; drug addition 72 h post-infection): 0.09 µM | Percent Infectivity of HIV-1 Virions in comparison to virus-alone control ([5]; 0.01 μM, added 8 h post-infection): 117.0% | Percent Infectivity of HIV-1 Virions in comparison to virus-alone control ([5]; 0.01 μM, added 16 h post-infection): 177.8% | Percent Infectivity of HIV-1 Virions in comparison to virus-alone control ([5]; 0.01 μM, added 24 h post-infection): 100.0% | virus infectivity reduced to % of virus-alone controls ([5]; 0.1 μM at 8 hours post-infection): 63% | virus infectivity reduced to % of virus-alone controls ([5]; 0.1 μM at 16 hours post-infection): 99.9% | Percent Infectivity of HIV-1 Virions in comparison to virus-alone control ([5]; 0.1 μM, added 8 h post-infection): 0.1% | Percent Infectivity of HIV-1 Virions in comparison to virus-alone control ([5]; 0.1 μM, added 16 h post-infection): 37.0% | reduction of virion infectivity ([5]; 1 μM added up to 24 hours post-infection): at least 90% | Percent Infectivity of HIV-1 Virions in comparison to virus-alone control ([5]; 1 μM, added 8 h post-infection): 0.1% | Percent Infectivity of HIV-1 Virions in comparison to virus-alone control ([5]; 1 μM, added 16 h post-infection): 1.4% | Percent Infectivity of HIV-1 Virions in comparison to virus-alone control ([5]; 1 μM, added 24 h post-infection): 10.0%

COCCOCCOCCNC(=O)C[C@H](NC(=O)c1ccc2ccccc2n1)C(=O)N[C@@H](Cc1ccccc1)[C@H](O)CN1C[C@H]2CCCC[C@H]2C[C@H]1C(=O)NC(C)(C)C
Papp A→B [2]: 4.21 ×10⁻⁶ cm/s

COCCOCCOCCOCCOCCNC(=O)C[C@H](NC(=O)c1ccc2ccccc2n1)C(=O)N[C@@H](Cc1ccccc1)[C@H](O)CN1C[C@H]2CCCC[C@H]2C[C@H]1C(=O)NC(C)(C)C
Papp A→B [2]: 1.66 ×10⁻⁶ cm/s
